In PubChem BioAssay AID540276 (National Center for Advancing Translational Sciences (NCATS), 2011) one finds activity change, negative = inhibition data, which are given here for 97 molecules.

Several values for one entry are separate records, joined by “and”; a condition that tells them apart may be missing. Equal entries are not always repeated. The list shows a part of the results, in another mix than the full data. Inconclusive results are not listed. Activity calls are given as the source filed them. Calls come from the whole dose curve; tested in HEK293 cells.
% is set by controls: 0 for no effect and ±100 for the full control effect.

A short description of the test: qHTS for inhibitors of binding or entry into cells for Marburg Virus. To be noted: Marburg virus pseudotyped entry inhibition, cell reporter; at 37.8 µM (top of the series) unless noted. For orientation: In qHTS, concentration-response curves come from the screen itself.
Turning to `CC(C)C(=O)NC(Sc1ccccc1)C(Cl)(Cl)Cl` (configuration not stated), the activity change, negative = inhibition is inactive: 10.7%. To `O=P(Nc1nccs1)(c1ccccc1)c1ccccc1` belongs inactive: -3.85%; to `c1nnnn1CCn1cnnn1`, inactive: -12.4% [at 46.1 µM]; to `O=[As](O)(c1ccccc1)c1ccc(O)cc1`, inactive: 15% [at 46.1 µM].

With `O=[N+]([O-])c1ccc(OP2(=O)COCCO2)cc1` (configuration not stated), the activity change, negative = inhibition is inactive: -11.6% [at 46.1 µM]. The result for `C(Cc1nn[nH]n1)Cc1nn[nH]n1` reads inactive: -1.04%.

As for `Nc1ccc([As](=O)(O)c2ccc([N+](=O)[O-])cc2)cc1`, the activity change, negative = inhibition is inactive: 2% [at 46.1 µM]. In the case of `CN(C)C1(CNC(=O)c2ccc(Cl)c(S(N)(=O)=O)c2)CCCCC1`, the activity change, negative = inhibition was inactive: -12.4%.

Take `CN(C)CCOC(=O)C(O)(c1ccccc1)C1CCCCC1` (configuration not stated): the activity change, negative = inhibition was inactive: -4.89%. In the case of `O=P(Nc1nc2ccccc2s1)(c1ccccc1)c1ccccc1`, the activity change, negative = inhibition is inactive: -29.6% [at 46.1 µM]. For `O=C(OC1CN2CCC1CC2)c1ccccc1` (configuration not stated), the activity change, negative = inhibition is inactive: 22.8%. To `CCC(=O)N1C2C3N(C(=O)CC)C1C1N(C(=O)CC)C(C(N1C(=O)CC)N3C(=O)CC)N2C(=O)CC` belongs inactive: 1.18%. The result for `COC(=O)c1cc2c(s1)N=C(c1ccccc1)N(C)P2(=O)N1CCOCC1` (configuration not stated) reads inactive: -0.0344%. The result for `CN(C)C(=O)Oc1noc2ccccc12` reads inactive: 1.66% [at 46.1 µM]; that for `CCOC(=O)NC(Sc1ccccc1)C(Cl)(Cl)Cl` (configuration not stated), inactive: 3.07%. For `Cc1ccc(NP(=O)(Oc2cccc(C)c2)Oc2cccc(C)c2)nc1`, the activity change, negative = inhibition is inactive: -24.2% [at 14.2 µM].

For the molecule `CCNC(=S)/N=C(\N)N[N+](=O)[O-]`, the activity change, negative = inhibition was inactive: 15.2% [at 46.1 µM].

Consider `O=C(NC1CCS(=O)(=O)C1)NP(=S)(Oc1ccccc1)Oc1ccccc1` (configuration not stated), for which the activity change, negative = inhibition is inactive: 18.1% [at 46.1 µM].

`O=P1(N(CCCl)CCCl)OCCC2CCCCN21` (configuration not stated): the activity change, negative = inhibition is inactive: -0.774% [at 46.1 µM]. The result for `COC(=O)C1(C)COP(=O)(NCc2ccccc2)OC1` (configuration not stated) reads inactive: 12.8%; that for `CC(=O)Nc1ccc([As](=O)(O)O)c(O)c1`, inactive: 5.52% [at 46.1 µM]; that for `CC(C)(C)C(=O)NC(Sc1ccccc1)C(Cl)(Cl)Cl` (configuration not stated), inactive: 0.418% [at 46.1 µM]. The result for `CCc1cc(O)c([N+](=O)[O-])c(C)c1[N+](=O)[O-]` reads inactive: 14.4%. The result for `Oc1ccccc1CNc1ccccn1` reads inactive: 18.4%. As to `O=C(NC(Sc1ccncn1)C(Cl)(Cl)Cl)c1ccccc1` (configuration not stated), the activity change, negative = inhibition is inactive: -9.03%. The result for `Cc1c2non([O-])c-2c(C)[n+](=O)[n+]1[O-]` reads inactive: 1.7%. The result for `Nc1cc(N)c2nonc2c1[N+](=O)[O-]` reads inactive: 9.75%.

`Cc1ccc(N/C(=N/P(=O)(N2CCOCC2)N2CCOCC2)N2CCOCC2)cc1`: the activity change, negative = inhibition was inactive: 0.0413% [at 46.1 µM]. The result for `NC(=O)c1cc([N+](=O)[O-])cc([N+](=O)[O-])c1N` reads inactive: 0.0723%. The result for `CN1CCCC(OC(=O)C(c2ccccc2)c2ccccc2)C1` (configuration not stated) reads inactive: 2.93%. To `CN(C)CCOC(=O)C(O)(c1ccccc1)C1CCCC1` (configuration not stated) belongs inactive: 3.29%; to `Cc1ccc(OP(=O)(Nc2nccs2)Oc2ccc(C)cc2)cc1`, inactive: -7.81%; to `O=P(Nc1nc2ccc(Cl)cc2s1)(c1ccccc1)c1ccccc1`, inactive: 8.31% [at 14.2 µM]. On to `CC(=O)Nc1ccc([As](=O)(O)O)cc1`, for which the activity change, negative = inhibition is inactive: -2.5% [at 46.1 µM]. As to `O=C(O)c1ccccc1[As](=O)(O)O`, the activity change, negative = inhibition is inactive: 9.95% [at 46.1 µM].

Turning to `CCCC1OP(N)(=O)OCC1CC` (configuration not stated), the activity change, negative = inhibition was inactive: 0.555% [at 46.1 µM].

On to `Cc1cc(SC(NC(=O)c2ccc(F)cc2)C(Cl)(Cl)Cl)ncn1` (configuration not stated), for which the activity change, negative = inhibition is inactive: 4.3%. The result for `CCOP(=O)(Nc1ccccc1)OCC` reads inactive: 4.95%; that for `Cc1ccc(NP(=O)(Oc2ccccc2F)Oc2ccccc2F)nc1`, inactive: 1.67% [at 46.1 µM]; that for `O=[N+]([O-])c1ncn(CCn2ncnc2[N+](=O)[O-])n1`, inactive: 5.43%. To `COC(=O)C1(C)COP(=O)(Nc2ccccc2)OC1` (configuration not stated) belongs inactive: 11.9%; to `O=P1(N(CCCl)CCCl)OCCCS1` (configuration not stated), inactive: -5.45% [at 46.1 µM]; to `CCN(/C(=N/P(=O)(N1CCOCC1)N1CCOCC1)N1CCOCC1)c1ccc(OC)cc1`, inactive: -1.82% [at 46.1 µM]. For `Nc1ccc([As](=O)(O)c2ccc(N)cc2)cc1`, the activity change, negative = inhibition was inactive: 19.8% [at 46.1 µM]. The result for `CC1CCN(C(=O)Oc2c(Cl)cc(Cl)c3cccnc23)CC1` reads inactive: 0.411%; that for `CC(C)=N/N=C(\N)N[N+](=O)[O-]`, inactive: 7.59% [at 46.1 µM]. To `CN(C)C(=O)OCCc1n(C)cc[n+]1C` belongs inactive: -4.28%; to `Cc1cccc(OCC(=O)O[C@@H]2CN3CCC2CC3)c1`, inactive: 1.19%. The result for `COc1ccc(C2=NCC(CBr)S2)cc1` (configuration not stated) reads inactive: -21.1% [at 46.1 µM]; that for `Cc1ccc(NP(=O)(Oc2ccccc2)Oc2ccccc2)nc1`, inactive: 0.189% [at 46.1 µM]. In the case of `O=[N+]([O-])c1cc([N+](=O)[O-])c(CCNc2ccccc2)c([N+](=O)[O-])c1`, the activity change, negative = inhibition is inactive: 2.7% [at 46.1 µM].

For the molecule `O=[N+]([O-])c1cccc2n[nH]nc12`, the activity change, negative = inhibition is inactive: 11.4%.

Take `CC(=O)N1C2C3N(C(C)=O)C1C1N(C(C)=O)C(C(N1C(C)=O)N3C(C)=O)N2C(C)=O`: the activity change, negative = inhibition is inactive: 6.96%. To `CCOC(=O)c1ccc(NC(=O)C(C)(CCl)SC)cc1` (configuration not stated) belongs inactive: 11.9% [at 46.1 µM]; to `CCC(C)N(CC(C)C)C(=S)SC(NC(C)=O)C(Cl)(Cl)Cl` (configuration not stated), inactive: -28.7%; to `COP1(=S)c2c(C)nn(CCC#N)c2N=C(c2ccc(F)cc2)N1C` (configuration not stated), inactive: -2.17%.

In the case of `O=C(COc1ccccc1)OC1CN2CCC1CC2` (configuration not stated), the activity change, negative = inhibition is inactive: -1.69%. With `CCOC(=O)Nc1cccc([As](=O)(O)O)c1`, the activity change, negative = inhibition was inactive: 7.99% [at 46.1 µM]. The result for `Cc1cc(SC(NC=O)C(Cl)(Cl)Cl)ncn1` (configuration not stated) reads inactive: -5.6% [at 46.1 µM]. To `CC1CCNP(=O)(N(CCCl)CCCl)O1` (configuration not stated) belongs inactive: 5.69%; to `CCCCOc1ccc(C(=O)NCC2(N3CCCCC3)CCCCC2)cc1OC`, inactive: -22.6% [at 46.1 µM]; to `Cc1cc(SC(NC(=O)c2ccccc2)C(Cl)(Cl)Cl)nc(C(C)C)n1` (configuration not stated), inactive: -2.47%.

Turning to `ClCCSc1nnc(-c2cccnc2)o1`, the activity change, negative = inhibition is inactive: 16.1%. The result for `CC(C)NC(=O)NP(=O)(Oc1ccccc1)Oc1ccccc1` reads inactive: 0.0512% [at 46.1 µM].

In the case of `O=C(OC1CN2CCC1CC2)c1cccc2[nH]cnc12` (configuration not stated), the activity change, negative = inhibition was inactive: 8.13%.

With `CCN(CC)C(=S)SC(NC=O)C(Cl)(Cl)Cl` (configuration not stated), the activity change, negative = inhibition is inactive: 25.3%. To `O=[As](O)(c1ccc(O)cc1)c1ccccc1O` belongs inactive: 9.4%; to `O=[N+]([O-])c1ccc(-c2cc([N+](=O)[O-])c(O)c([N+](=O)[O-])c2)cc1`, inactive: 7.97%. To `Cc1ccc2nc3c(c(C)c2c1)CC(C(Cl)Cl)S3` (configuration not stated) belongs inactive: -8.56% [at 46.1 µM].

`COc1ccc(N/C(=N/P(=O)(N2CCOCC2)N2CCOCC2)N2CCOCC2)cc1`: the activity change, negative = inhibition was inactive: -0.372%.

`Cc1c2c(nc3ccccc13)SC(C(Cl)Cl)C2` (configuration not stated): the activity change, negative = inhibition is inactive: 1.77%. The result for `Cc1ccc(OCC(=O)O[C@@H]2CN3CCC2CC3)cc1` reads inactive: -9.02%; that for `COc1ccc2nc(NP(=O)(c3ccccc3)c3ccccc3)sc2c1`, inactive: -3.98% [at 46.1 µM].

For `COc1cc(I)ccc1[As](=O)(O)O`, the activity change, negative = inhibition was inactive: -6.19% [at 46.1 µM]. To `CCOP(=O)(Nc1cccc2ccccc12)OCC` belongs inactive: 16.1%. Take `O=C(OC1CN2CCC1CC2)c1ccc(Cl)cc1` (configuration not stated): the activity change, negative = inhibition was inactive: -1.83% [at 46.1 µM]. The result for `CS(=O)(=O)c1ccc(Cl)c(NC(=O)COC(=O)C(O)(c2ccccc2)c2ccccc2)c1` reads inactive: -25.5%; that for `Cc1cccc(OCC(=O)OC2CN3CCC2CC3)c1` (configuration not stated), inactive: 1.19%; that for `N#CCCN(C(=O)COC(=O)C(O)(c1ccccc1)c1ccccc1)c1ccc(F)cc1`, inactive: -1.04%. The result for `CCOP1(=S)c2c(C)nn(CCC#N)c2N=C(c2ccc(F)cc2)N1C` (configuration not stated) reads inactive: -4.84%. To `CN(C(=O)Cc1ccccc1)[C@@H]1CC[C@]2(CCCO2)C[C@H]1N1CCCC1` belongs inactive: -4.3%; to `O=[N+]([O-])c1ccc2c(c1)nnn2O`, inactive: 4.68%; to `CCOP1(=S)c2c(C)nn(CCC#N)c2N=C(c2ccccc2F)N1C` (configuration not stated), inactive: 0.452%. For the molecule `CS(=O)(=O)c1cc([N+](=O)[O-])c2no[n+]([O-])c2c1`, the activity change, negative = inhibition is inactive: 7.2% [at 46.1 µM]. To `Nc1ccccc1[As](=O)(O)c1ccccc1` belongs inactive: 7.37%. To `O=C(O)COc1ccc([As](=O)(O)O)cc1[N+](=O)[O-]` belongs inactive: -1.49% [at 46.1 µM]. Regarding `O=P1(Nc2ncccn2)COc2ccccc2OC1`, the activity change, negative = inhibition was inactive: -2.12%. The result for `Cc1ccc(OCC(=O)OC2CN3CCC2CC3)cc1` (configuration not stated) reads inactive: -9.02%. The result for `O=P1(Nc2ccc(Br)cn2)COc2ccccc2OC1` reads inactive: 16.8%. To `Cc1nn(-c2ccccc2)c2c1P(=O)(N1CCOCC1)N(C)C(c1ccccc1)=N2` (configuration not stated) belongs inactive: 14.3% and inactive: -1.13%; to `COc1cc(C2NCCC3(OCCO3)C2(C)C)cc(OC)c1OC.O=[N+]([O-])c1cc([N+](=O)[O-])c(O)c([N+](=O)[O-])c1` (configuration not stated), inactive: -22.1%; to `O=C(/C=C/c1ccccc1)OC1CN2CCC1CC2` (configuration not stated), inactive: -8.26%. Take `CCCC1OP(=O)(Nc2ccccc2)OCC1CC` (configuration not stated): the activity change, negative = inhibition is inactive: -29.2% [at 46.1 µM].

For `CC(C)/C=N\N=C(\N)N[N+](=O)[O-]`, the activity change, negative = inhibition is inactive: 16.6% [at 46.1 µM].

For `CC1(CBr)Cn2c(nc3ccccc3c2=O)S1` (configuration not stated), the activity change, negative = inhibition was inactive: -19.5%.

Regarding `O=P1(Nc2ccccn2)COc2ccccc2OC1`, the activity change, negative = inhibition was inactive: 31.7%. The result for `Clc1n[nH]nc1-c1nn[nH][15n]1` reads inactive: -2.21%.
